Like-named read-outs stand apart in the source and are kept apart here.
Columns and labels:
[1] = biological target: T1, N. gonorrhoeae PBP 2 (Neisseria gonorrhoeae, UniProt P08149); experiment: FP-based concentration-response competition assay with Bocillin-FL; type: binding; conditions: read-out: IC50 measured by FP, 0.01–200 µM compound, 1 µM PBP 2, 1 µM Bocillin-FL, four replicates
Method: (§1) A soluble construct of wild-type PBP 2 from the penicillin-susceptible strain of N. gonorrhoeae FA19 was expressed and purified as described previously. Bocillin FL™ was obtained from Invitrogen Inc. (Carlsbad, CA). Penicillin G and γ-Globulins from bovine blood (BGG) were purchased from Sigma (St. Louis, MO). Prior to use, all reagents were diluted in an assay buffer comprising 50 mM potassium phosphate, pH 8, and 0.1 mg/ml BGG. The DIVERSet library of 50,080 small lead compounds from ChemBridge Corporation (San Diego, CA) was provided by the MUSC Drug Discovery Core (DDC). […]
(§2) Measurements of fluorescence and FP were performed on a Spectramax M5 microplate reader (Molecular Devices, Sunnyvale, CA) with excitation and emission wavelengths of 485 nm and 520 nm, respectively, using a 515 nm filter to block residual excitation light and to minimize background interference. […] To minimize the polarization effects from any fluorophore bound to the surface of the well, both excitation and emission data were recorded from the top of the well. Reading time was 100 ms per well. […] Using the equation G = Iv/Ih and SoftMax® Pro Data Acquisition & Analysis Software (Molecular Devices, Sunnyvale, CA), the G-factor was determined with dilution series of Bocillin-FL-only (free tracer). […]

Protein sequences, listed by entry. Tags and fused reporters are not part of them. Residues count along the entry.
UniProt P08149, 44-581 limits assumed: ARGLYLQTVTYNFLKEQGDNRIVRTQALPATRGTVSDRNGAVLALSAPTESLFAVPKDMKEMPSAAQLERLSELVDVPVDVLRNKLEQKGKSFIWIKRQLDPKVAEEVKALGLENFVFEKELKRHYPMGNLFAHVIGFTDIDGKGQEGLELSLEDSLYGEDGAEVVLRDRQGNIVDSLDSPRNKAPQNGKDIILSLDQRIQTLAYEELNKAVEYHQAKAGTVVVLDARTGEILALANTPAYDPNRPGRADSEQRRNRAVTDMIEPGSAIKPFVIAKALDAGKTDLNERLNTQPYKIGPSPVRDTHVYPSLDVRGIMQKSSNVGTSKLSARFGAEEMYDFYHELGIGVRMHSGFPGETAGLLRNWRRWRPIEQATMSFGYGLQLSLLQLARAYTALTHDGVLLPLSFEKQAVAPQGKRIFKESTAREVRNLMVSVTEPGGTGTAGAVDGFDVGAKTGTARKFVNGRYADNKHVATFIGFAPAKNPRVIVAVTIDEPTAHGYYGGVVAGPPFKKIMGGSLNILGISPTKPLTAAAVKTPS

[2] = biological target: T1, N. gonorrhoeae PBP 2; experiment: FP high-throughput screening assay (Bocillin-FL binding to PBP 2); conditions: FP signal of individual compound with PBP 2 and Bocillin-FL; four replicates
Method: as §1, §2

## CC1=C(C(=O)O)N2C(=O)C(NC(=O)Cc3ccccc3)C2SC1 (stereo not drawn)
[1]
  IC50: 3.1 µM
[1]; listed as cephalosporin
  IC50: 3 µM
[2]
  Compound (mP) (mean ± SD): 51.8±3.7 mP

From paper PMC3458020, “High-Throughput Screening for Novel Inhibitors of Neisseria gonorrhoeae Penicillin-Binding Protein 2” (PLoS ONE, 2012)
